PubChem BioAssay AID1259414 – Drosophila RNAi Screening Center, 2018

- Screen: 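Host factors increasing or decreasing Wolbachia levels in cultured fly cells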 (primary screen)
- Cell system: Drosophila JW18 cells infected with Wolbachia
- Reagent: long dsRNA against Drosophila genes, 0.25 µg dsRNA per well of a 384-well plate
- Timing: 5 days
- Treatment: cells persistently infected with Wolbachia before knock-down; no added drug
- Measurement: 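Automated imaging of bacterial rRNA staining divided by host cell count, reported as plate-normalised robust z-score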
- Direction: Wolbachia per cell robust z: higher = more Wolbachia per host cell than the plate typical
- Call rule: 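Active if absolute robust z reaches 1.5 in two or more of three replicates, leaving out multi- or no-target dsRNAs, genes unexpressed in JW18 and A1 wells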
In all, the deposit lists about 24,000 reagents; this is a random part of those with a known target gene and a result. In the full data, about 1,210 (5%) are marked active. 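Inactive calls also include excluded dsRNAs with several or no targets, genes unexpressed in JW18, and well A1, regardless of score.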 Unmarked entries are inactive.

Rpp14b [DRSC15063]
- Wolbachia per cell robust z, rep 1: 0.56
- Wolbachia per cell robust z, rep 2: -4.24
- Wolbachia per cell robust z, rep 3: -1.39

CG6304 [DRSC02948]
- Wolbachia per cell robust z, rep 1: 0.18
- Wolbachia per cell robust z, rep 2: -1.55
- Wolbachia per cell robust z, rep 3: -1.02

CG6304 [DRSC27729]
- Wolbachia per cell robust z, rep 1: 1.03
- Wolbachia per cell robust z, rep 2: 0.455
- Wolbachia per cell robust z, rep 3: -0.112

CG11149 [DRSC02130]
- Wolbachia per cell robust z, rep 1: -0.714
- Wolbachia per cell robust z, rep 2: 0.187
- Wolbachia per cell robust z, rep 3: 1.15

Taken from above.
CG11149 [DRSC02130], Wolbachia per cell robust z, rep 3: 1.15
Result for Rpp14b [DRSC15063] under “Wolbachia per cell robust z, rep 1”: 0.56

The list goes on.
CG31937 [DRSC00514]
- Wolbachia per cell robust z, rep 1: 0.36
- Wolbachia per cell robust z, rep 2: -0.0696
- Wolbachia per cell robust z, rep 3: 0.869

CG31213 [DRSC14312]
- Wolbachia per cell robust z, rep 1: -0.236
- Wolbachia per cell robust z, rep 2: 0.288
- Wolbachia per cell robust z, rep 3: 0.183

CG31213 [DRSC15647]
- Wolbachia per cell robust z, rep 1: -0.394
- Wolbachia per cell robust z, rep 2: 0.961
- Wolbachia per cell robust z, rep 3: 0.158

CG7634 [DRSC11843]
- Wolbachia per cell robust z, rep 1: -3.77
- Wolbachia per cell robust z, rep 2: 0.833
- Wolbachia per cell robust z, rep 3: -0.537

asRNA:CR31084 [DRSC21649]
- Wolbachia per cell robust z, rep 1: -0.759
- Wolbachia per cell robust z, rep 2: 0.154
- Wolbachia per cell robust z, rep 3: -1.08

CG18549 [DRSC15347]
- Wolbachia per cell robust z, rep 1: 0.676
- Wolbachia per cell robust z, rep 2: 0.932
- Wolbachia per cell robust z, rep 3: 0.77

CG18549 [DRSC28847]
- Wolbachia per cell robust z, rep 1: 0.402
- Wolbachia per cell robust z, rep 2: 0.362
- Wolbachia per cell robust z, rep 3: 0.388

SkpD [DRSC22208]
- Wolbachia per cell robust z, rep 1: 0.217
- Wolbachia per cell robust z, rep 2: 0.596
- Wolbachia per cell robust z, rep 3: 0.925
